Test system: T. cruzi epimastigotes
Assay: Scanning and transmission electron microscopy of treated epimastigotes
Format: cell-based, Trypanosoma cruzi
Conditions: treated at IC50 concentration, 24-72 h

O=C(/C=C/c1ccc(O)cc1)CC(=O)/C=C/c1ccc(O)cc1 [BDMC, bisdemethoxycurcumin]
ultrastructural changes of epimastigotes: apparent decrease in cell volume

Source: article PMC5033595, “The Effectiveness of Natural Diarylheptanoids against Trypanosoma cruzi: Cytotoxicity, Ultrastructural Alterations and Molecular Modeling Studies” (PLoS ONE, 2016)
